A mixed list of measured activities; the numbers were collected in NIAID ChemDB.

Shared fields: growth or infection tests; organism: Mycobacterium avium; measure: MIC

Neighbouring rows are from separate reports.

structure	conditions	strain	value
CCCCCCCS/C(N)=N/N=C/c1ccc2ccccc2n1	-	CNCTC MY80/72	16 µM
COc1ccc(C(=O)N/N=C(\N)SCc2cccc(Cl)c2)cc1	-	ATCC 19421	>100 µg/mL
NNC(=O)c1ccncc1	-	103317	32 µg/mL
O=C(NCc1ccc(Br)cc1)c1ncccc1S	-	CNCTC MY330/88	16 µM
CCc1cc(C(N)=S)ccn1	-	1854-4	0.63 µg/mL
N#Cc1ccc(NC(=O)c2cc(Br)ccc2O)cc1	-	CNCTC MY330/88	8 µM
CC(C)(C)OCOC(=O)c1cnccn1	-	ATCC 25291	25 µg/mL
FC(F)(F)c1ccc(-n2c(=S)oc3ccc(Cl)cc3c2=S)cc1	14 d	MY330/88	62.5 µM
CN1CCN(c2ccc(NCc3ccc(-c4ccccc4)cc3)cc2)CC1	-	103317	8 µg/mL
CCCC(C)C(C/C(C)=C/CC[C@H](C)CCO)C(=O)O	-	-	31.25 µM
S=c1oc2ccc(Br)cc2c(=S)n1-c1ccc(Cl)c(Cl)c1	14 d	MY330/88	32 µM
O=C(Nc1ccc(F)cc1)c1ccccc1O	-	CNCTC MY330/88	62.5 µM
Cc1ccc(CSc2nnn(-c3ccc(C)cc3)n2)cc1	-	CNCTC MY330/88	32 µM
O=C(Nc1ccc(Cl)c(Cl)c1)c1cc([N+](=O)[O-])ccc1O	-	CNCTC MY330/88	62.5 µM
S=c1oc2ccc(Br)cc2c(=S)n1-c1ccc(Br)cc1	21 d	MY330/88	32 µM
CCCCC(C/C=C(/C)CCC=C(C)C)C(=O)O	-	-	250 µM
O=C(Nc1ccc([N+](=O)[O-])cc1)c1ccccc1O	-	CNCTC MY330/88	31 µM
C(=C\c1ccccc1)/CO/N=C(\Cn1ccnc1)c1ccccc1	-	103317	25.2 µM
NC(=S)NNC(=O)c1ccc(Cl)cc1	-	ATCC 19421	>100 µg/mL
O=C(Nn1cncn1)c1ccc(Cl)cc1O	-	MY330/88	1000 µM
Clc1ccc(C(Cn2ccnc2)NC/C=C/c2ccccc2)c(Cl)c1	-	103317	21.5 µM
CC(=O)Nc1ccc(/C=N/NC(N)=S)cc1	-	3350	0.02 µg/mL
O=C(Nc1ccccc1)c1ncccc1O	-	CNCTC MY330/88	125 µM
Cc1cccc(OC/C(N)=N\NC(=O)c2ccncc2)c1	-	ATCC 19421	>100 µg/mL
Cc1ccc(C(=O)Nc2cccc([N+](=O)[O-])c2)c(O)c1	-	CNCTC MY330/88	31 µM
O=C(N/N=C(\COc1ccc(Cl)cc1)N=Cc1cccnc1)c1ccncc1	-	ATCC 19421	>100 µg/mL
CN1CCN(c2cccc(NCc3ccc(-c4ccccc4)cc3)c2)CC1	-	103317	21.6 µM
C=CCS/C(N)=N/NC(=O)c1ccc(Cl)cc1Cl	-	ATCC 19421	>100 µg/mL
O=C(Nc1ccccc1)c1ccccc1O	-	CNCTC MY330/88	62.5 µM
COc1ccc2oc(=O)n(-c3ccc(C)cc3)c(=S)c2c1	14 d	MY330/88	32 µM
Oc1cc(Cl)ccc1C(=S)NCc1ccc(Cl)c(Cl)c1	-	MY330/88	16 µg/mL
CCCCCCCCOC(=O)c1cnccn1	-	ATCC 25291	>200 µg/mL
O=C(Nc1cccc(Cl)c1)c1ncccc1O	-	CNCTC MY330/88	62.5 µM
CC(C)c1c(O)cc([C@@H](N=C(N)N)C(=O)NCC(=O)O)cc1O	-	Strain #2	6.25 µg/mL
O/N=C(\Cn1ccnc1)c1ccc(F)cc1	-	103317	146 µM
COc1ccc(NC(=O)c2ncccc2S)cc1	-	CNCTC MY330/88	16 µM
CN(C)c1ccc(NC(=O)c2cc([N+](=O)[O-])ccc2O)cc1	-	CNCTC MY330/88	1000 µM
Clc1ccc(CNc2cccc(-n3ccnc3)c2)cc1	-	103317	13.4 µM
CCCCS/C(N)=N/NC(=O)c1ccccc1	-	ATCC 19421	>100 µg/mL
CC(=O)NC[C@H]1CN(c2ccc(N3CCN(c4ccc([N+](=O)[O-])s4)CC3)c(F)c2)C(=O)O1	-	4	<0.125 µg/mL
Cc1cc(NC(=O)c2cc(Cl)ccc2O)no1	-	MY330/88	62.5 µM
COc1ccc(CSc2nnn(-c3ccc(OC)cc3)n2)cc1	-	CNCTC MY330/88	62.5 µM
Fc1ccc(/C(Cn2ccnc2)=N\OC/C=C/c2ccccc2)cc1	-	103317	23.8 µM
N/C(COc1cccc(Cl)c1)=N/NC(=O)c1ccncc1	-	ATCC 19421	100 µg/mL
Cc1csc(NC(=O)c2ccc(Cl)cc2O)n1	-	MY330/88	250 µM
O=C(Nc1cccc(F)c1)c1ncccc1S	-	CNCTC MY330/88	16 µM
NC[C@H]1O[C@H](O[C@H]2[C@H](O)[C@@H](O[C@H]3O[C@H](CO)[C@@H](O)[C@H](N)[C@H]3O)[C@H](N)C[C@@H]2N)[C@H](O)[C@@H](O)[C@@H]1O	-	Strain 1	6.25 µg/mL
C=CCS/C(N)=N/NC(=O)c1ccc(C)cc1	-	ATCC 19421	>100 µg/mL
c1ccc(-c2ccc(CNc3ccccc3-n3ccnc3)cc2)cc1	-	103317	>16 µg/mL
CCCCCCCCCCCCC(C(=O)O)c1ccccc1	-	-	1.67 µM
Cc1csc(NC(=O)c2cc(Br)ccc2O)n1	-	MY330/88	250 µM
CCCCCN1C(=S)C(=O)c2ccccc21	-	CNCTC D5/93	32 µM
COc1ccc(O)c(C(=S)NCc2cccc(Cl)c2)c1	-	MY330/88	1 µg/mL
CCS/C(N)=N/N=C/c1ccc2ccccc2n1.CCS/C(N)=N/N=C/c1ccc2ccccc2n1	-	CNCTC D5/93	63 µM
CC[C@@H](C)[C@H](NC(=O)OCc1ccccc1)c1cnc(-c2ccc([N+](=O)[O-])cc2)[nH]1	21 d	MY330/88	>125 µM
CCCCS/C(N)=N/N=C/c1ccc2ccccc2n1	-	CNCTC MY80/72	63 µM
O=C(Nc1ncn[nH]1)c1cc(F)ccc1O	-	MY330/88	250 µM
Cc1ccc(O)c(C(=O)NCc2ccccc2)c1	-	MY330/88	62.5 µg/mL
CCCCC(C(=O)O)c1ccccc1	-	-	>100 µM
CCCCCCS/C(N)=N/N=C/c1ccc2ccccc2n1	-	CNCTC D5/93	63 µM
Cc1ccc(C(=O)Nc2cncs2)c(O)c1	-	MY330/88	125 µM
Clc1ccc(CNc2ccc(-n3ccnc3)cc2)cc1	-	103317	13.4 µM
N/C(COc1ccc([N+](=O)[O-])cc1)=N/NC(=O)c1ccncc1	-	ATCC 19421	>100 µg/mL
CS/C(N)=N/N=C/c1ccc2ccccc2n1	-	CNCTC MY80/72	1000 µM
c1ccc(/C(Cn2ccnc2)=N/OCc2cccc3ccccc23)cc1	-	103317	23.4 µM
CCCCCC(C)(CCCCC)OC(=O)c1cnc(Cl)cn1	-	101	>64 µg/mL
CCn1c(S)c(N=NC(N)=[NH2+])c2ccccc21	-	CNCTC MY66/72	125 µM
O=C(Nc1cccc(F)c1)c1cc(Cl)ccc1O	-	CNCTC MY330/88	31 µM
O=C(N[C@@H](Cc1ccccc1)c1cnc(-c2ccc([N+](=O)[O-])cc2)[nH]1)OCc1ccccc1	21 d	MY330/88	>62.5 µM
CCS/C(N)=N/N=C/c1ccccc1O	-	CNCTC D5/93	125 µM
O=C1C(=S)N(c2ccccc2)c2ccccc21	-	CNCTC MY66/72	63 µM
C/C=C/CCC(C)CCC(=O)O	-	-	250 µM
C[C@@H](NC(=O)OCc1ccccc1)c1cnc(-c2ccccc2)[nH]1	14 d	MY330/88	250 µM
CC(=O)NC[C@H]1CN(c2ccc(N3CCS(=O)(=O)CC3)c(F)c2)C(=O)O1	-	-	2 µg/mL
O=C(NCc1ccc(C(F)(F)F)cc1)c1ncccc1O	-	CNCTC MY330/88	125 µM
CCCOC(=O)c1cnc(C)cn1	-	ATCC49601	64 µg/mL
COc1ccc(CSc2nnn(-c3ccc(C)cc3)n2)cc1	-	CNCTC MY330/88	32 µM
CN1CCN(c2ccccc2NCc2ccc(-c3ccccc3)cc2)CC1	-	103317	2 µg/mL
CCCCCCCCC(CC)OC(=O)c1cnc(Cl)cn1	-	ATCC49601	256 µg/mL
CC[C@@H](C)[C@H](NC(=O)OCc1ccccc1)c1cnc(-c2ccccc2)[nH]1	21 d	MY330/88	>500 µM
CCCCCCC(C)(CCCC)OC(=O)c1cnc(Cl)cn1	-	ATCC49601	>256 µg/mL
COc1ccc(-n2nnc(SCc3ccc(C)cc3)n2)cc1	-	CNCTC MY330/88	125 µM
COc1ccc(C(=O)NNC(N)=S)cc1	-	ATCC 19421	>100 µg/mL
CCCCCCCC(CC(=O)O)c1ccccc1	-	-	>100 µM
COc1cc(C(=O)N/N=C(\N)SCc2cccc(Cl)c2)cc(OC)c1OC	-	ATCC 19421	>100 µg/mL
O=C(NCc1ccc(C(F)(F)F)cc1)c1c(O)cc(Br)cc1Br	-	MY330/88	62.5 µg/mL
O=c1oc2ccc(Cl)cc2c(=S)n1-c1ccc(C(F)(F)F)cc1	14 d	MY330/88	32 µM
N/C(=N\NC(=O)c1ccc([N+](=O)[O-])cc1)SCc1cccc(Cl)c1	-	ATCC 19421	>100 µg/mL
CCCCCCCC(OC(=O)c1cnc(Cl)cn1)C(C)(C)C	-	ATCC49601	>256 µg/mL

Again, the opening 11 rows:

| structure | conditions | strain | value |
|---|---|---|---|
| CCCCCCCS/C(N)=N/N=C/c1ccc2ccccc2n1 | - | CNCTC MY80/72 | 16 µM |
| COc1ccc(C(=O)N/N=C(\N)SCc2cccc(Cl)c2)cc1 | - | ATCC 19421 | >100 µg/mL |
| NNC(=O)c1ccncc1 | - | 103317 | 32 µg/mL |
| O=C(NCc1ccc(Br)cc1)c1ncccc1S | - | CNCTC MY330/88 | 16 µM |
| CCc1cc(C(N)=S)ccn1 | - | 1854-4 | 0.63 µg/mL |
| N#Cc1ccc(NC(=O)c2cc(Br)ccc2O)cc1 | - | CNCTC MY330/88 | 8 µM |
| CC(C)(C)OCOC(=O)c1cnccn1 | - | ATCC 25291 | 25 µg/mL |
| FC(F)(F)c1ccc(-n2c(=S)oc3ccc(Cl)cc3c2=S)cc1 | 14 d | MY330/88 | 62.5 µM |
| CN1CCN(c2ccc(NCc3ccc(-c4ccccc4)cc3)cc2)CC1 | - | 103317 | 8 µg/mL |
| CCCC(C)C(C/C(C)=C/CC[C@H](C)CCO)C(=O)O | - | - | 31.25 µM |
| S=c1oc2ccc(Br)cc2c(=S)n1-c1ccc(Cl)c(Cl)c1 | 14 d | MY330/88 | 32 µM |

An empty or dashed field is not shown.